Results deposited as PubChem BioAssay AID624099 (ICCB-Longwood, 2012).

Purpose: 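Host factors E2 relies on to silence an HPV18 LCR reporter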 (primary screen)
System: human C33A cervical carcinoma cells (HPV-negative) stably expressing BPV1 E2 and an HPV18 LCR luciferase reporter
Knock-down reagent: siRNA pool against human genes, 40 nM
Timing: 72 h
Detection: 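HPV18 LCR reporter light per well, converted to plate-wise z-scores that exclude control wells, and averaged over triplicate plates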
Reading the numbers: mean z-score and z-score: higher = stronger reporter signal, weaker E2 silencing
Active means: 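Hit if mean z-score reaches 2 and two or more of three replicate z-scores also reach 2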
This is one part, drawn at random, of about 21,000 deposited reagents. 497 of all reagents (2.4%) count as active. 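Higher z means weaker E2 silencing; only reporter increases were scored, and knock-downs that hurt cell survival may mask genuine repressor factors.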 A number with no mark means an inactive call. Reagents against one gene are numbered here.

{"target": "GBP1P1", "pool no.": 1, "mean z-score": -0.8, "z-score, replicate A": -1.08, "z-score, replicate B": -0.5, "z-score, replicate C": -0.83}
{"target": "GBP1P1", "pool no.": 2, "mean z-score": -0.14, "z-score, replicate A": -0.03, "z-score, replicate B": -0.38, "z-score, replicate C": -0.01}
{"target": "DNTTIP2", "pool no.": 1, "mean z-score": -1.09, "z-score, replicate A": -0.87, "z-score, replicate B": -1.42, "z-score, replicate C": -0.98}
{"target": "MICB", "pool no.": 1, "mean z-score": 0.27, "z-score, replicate A": 0.23, "z-score, replicate B": 0.41, "z-score, replicate C": 0.16}
{"target": "MYPN", "pool no.": 1, "mean z-score": 0.69, "z-score, replicate A": 1.14, "z-score, replicate B": 0.59, "z-score, replicate C": 0.33}
{"target": "GALR1", "pool no.": 1, "mean z-score": 2.06, "z-score, replicate A": 2.5, "z-score, replicate B": 1.73, "z-score, replicate C": 1.94}
{"target": "UGT1A5", "pool no.": 1, "mean z-score": 0.22, "z-score, replicate A": 0.16, "z-score, replicate B": -0.09, "z-score, replicate C": 0.59}
{"target": "FGF11", "pool no.": 1, "mean z-score": 0.07, "z-score, replicate A": 0.21, "z-score, replicate B": -0.04, "z-score, replicate C": 0.03}
{"target": "SPRY1", "pool no.": 1, "mean z-score": -0.12, "z-score, replicate A": -0.05, "z-score, replicate B": -0.32, "z-score, replicate C": 0.02}
{"target": "LOC128208 (retired record)", "pool no.": 1, "mean z-score": -1.8, "z-score, replicate A": -1.24, "z-score, replicate B": -2.04, "z-score, replicate C": -2.12}
{"target": "FLJ10246 (retired record)", "pool no.": 1, "mean z-score": -0.04, "z-score, replicate A": -0.13, "z-score, replicate B": 0.1, "z-score, replicate C": -0.09}
{"target": "C16orf96", "pool no.": 1, "mean z-score": 0.12, "z-score, replicate A": 0.35, "z-score, replicate B": -0.27, "z-score, replicate C": 0.3}
{"target": "SEMA6D", "pool no.": 1, "mean z-score": 0, "z-score, replicate A": -0.34, "z-score, replicate B": 0.28, "z-score, replicate C": 0.06}
{"target": "PRAF2", "pool no.": 1, "mean z-score": -1.58, "z-score, replicate A": -1.28, "z-score, replicate B": -1.87, "z-score, replicate C": -1.58}
{"target": "CWC15", "pool no.": 1, "mean z-score": -0.89, "z-score, replicate A": -0.33, "z-score, replicate B": -1.23, "z-score, replicate C": -1.1}
{"target": "OBI1", "pool no.": 1, "mean z-score": -0.2, "z-score, replicate A": -0.45, "z-score, replicate B": -0.42, "z-score, replicate C": 0.26}
{"target": "H3Y1", "pool no.": 1, "mean z-score": -2.35, "z-score, replicate A": -2.86, "z-score, replicate B": -2.04, "z-score, replicate C": -2.16}
{"target": "LOC388929 (retired record)", "pool no.": 1, "mean z-score": -0.24, "z-score, replicate A": -0.09, "z-score, replicate B": -0.36, "z-score, replicate C": -0.26}
{"target": "ZKSCAN8P2", "pool no.": 1, "mean z-score": 0.42, "z-score, replicate A": 0.41, "z-score, replicate B": 0.02, "z-score, replicate C": 0.84}
{"target": "IL1A", "pool no.": 1, "mean z-score": 1.16, "z-score, replicate A": 1.31, "z-score, replicate B": 1.16, "z-score, replicate C": 1.01}
{"target": "CDC37P1", "pool no.": 1, "mean z-score": 0.23, "z-score, replicate A": -0.04, "z-score, replicate B": 0.72, "z-score, replicate C": 0.02}
{"target": "DRC8", "pool no.": 1, "mean z-score": -0.39, "z-score, replicate A": -0.74, "z-score, replicate B": -0.18, "z-score, replicate C": -0.24}
{"target": "S100A7P3", "pool no.": 1, "mean z-score": 0.04, "z-score, replicate A": 0.44, "z-score, replicate B": -0.29, "z-score, replicate C": -0.04}
{"target": "LOC399851 (retired record)", "pool no.": 1, "mean z-score": -0.91, "z-score, replicate A": -0.68, "z-score, replicate B": -1.01, "z-score, replicate C": -1.04}
{"target": "LOC388274 (retired record)", "pool no.": 1, "mean z-score": 0.77, "z-score, replicate A": 1.15, "z-score, replicate B": 0.45, "z-score, replicate C": 0.71}
{"target": "ARL16", "pool no.": 1, "mean z-score": 1.57, "z-score, replicate A": 1.89, "z-score, replicate B": 1.87, "z-score, replicate C": 0.94}
{"target": "SLC3A2", "pool no.": 1, "mean z-score": 0.45, "z-score, replicate A": 0.1, "z-score, replicate B": 0.46, "z-score, replicate C": 0.78}

Part of the list above, reduced to “z-score, replicate C”.
DRC8	-0.24
S100A7P3	-0.04
LOC399851 (retired record)	-1.04
